Compound potency records, mixed from different reports. Data source: NIAID ChemDB in PubChem.

All rows: target-level tests; species: Hepatitis C virus

Inhibition is in % at the dose shown (toxicity tests: loss of growth or viability). ICn is the concentration giving n% inhibition. Two numbers with a dash give a range or band. An empty or dashed field is not shown. Conditions beyond the fields shown may differ between rows.

smiles | dose | measure | target | value
Cc1ccc2cc(-c3nc4cc(C(=O)NC(Cc5c[nH]c6ccc(O)cc56)C(=O)O)ccc4n3C3CCCCC3)ccc2n1 | 100 µM | inhibition | NS5B polymerase | 98.22%
Cc1ccccc1S(=O)(=O)Nc1cc(-c2cc(NS(=O)(=O)c3ccccc3C)c(C(=O)O)s2)sc1C(=O)O | - | IC50 | NS3 ATPase | <5 µM
CNC(=O)c1c(-c2ccc(F)cc2)oc2cc(N(Cc3nsc(Cl)n3)S(C)(=O)=O)c(OC(C)C)cc12 | - | IC50 | Nonstructural protein 5B | ≤0.5 µM
Clc1cccc(Oc2ccc(-c3cnc4c(-c5nn[nH]n5)cnn4c3C3CCCCC3)cc2)c1 | - | IC50 | RNA-dependent RNA polymerase | <1 µM
Cc1ccccc1CNC(=O)Nc1ccsc1-c1nc(C(=O)O)c(O)c(=O)[nH]1 | - | IC50 | HCV polymerase | <25 µM
CC(=O)c1ccc(-c2cc(N(C(=O)C3CCC(C)CC3)C(C)C)c(C(=O)O)s2)cc1 | - | IC50 | NS3 ATPase | <5 µM
O=C(O)c1cnn2c(-c3ccccc3Cl)cc(-c3ccccc3)nc12 | - | IC50 | RNA-dependent RNA polymerase | >10 µM
COc1ccc(-c2ccc(OC)cc2-c2ccc3cc(-c4nc5cc(C(=O)O)ccc5n4C4CCCCC4)ccc3n2)cc1 | 100 µM | inhibition | NS5B polymerase | 99.12%
Cc1nc(C)c(COc2ccc(-c3cnc4c(-c5nn[nH]n5)cnn4c3C3CCCCC3)cc2)s1 | - | IC50 | RNA-dependent RNA polymerase | <1 µM
O=C(/C=C/c1ccccc1)Nc1ccsc1-c1nc(C(=O)O)c(O)c(=O)[nH]1 | - | IC50 | HCV polymerase | <25 µM
CCNS(=O)(=O)c1cc2oc(-c3ccc(F)cc3)c(C(=O)NC)c2cc1OC(C)C | - | IC50 | Nonstructural protein 5B | ≤0.5 µM
O=C(O)c1cc2nc(-c3ccc(OCc4cccc(C(F)(F)F)c4)c(F)c3)c(C3CCCCC3)c(=O)n2[nH]1 | - | IC50 | RNA-dependent RNA polymerase | 1–10 µM
Cc1ccccc1S(=O)(=O)Nc1cc(C(=O)c2ccccc2)sc1C(=O)O | - | IC50 | NS3 ATPase | 5–20 µM
C=CCOc1cc2c(C(=O)NC)c(-c3ccc(F)cc3)oc2cc1N(C)S(C)(=O)=O | - | IC50 | Nonstructural protein 5B | ≤0.5 µM
O=C(Nc1cccc(-c2nc(C(=O)O)c(O)c(=O)[nH]2)c1)NC1CCCCC1 | - | IC50 | HCV polymerase | <100 µM
CC(C)N(C(=O)c1ccc(F)cc1)c1cc(-c2ccccc2)sc1C(=O)O | - | IC50 | NS3 ATPase | 5–20 µM
COc1ccc(-c2ccccc2F)c(-c2ccc3cc(-c4nc5cc(C(=O)O)ccc5n4C4CCCCC4)ccc3n2)c1 | 100 µM | inhibition | NS5B polymerase | 100%
O=C(Cc1ccccc1)Nc1ccsc1-c1nc(C(=O)O)c(O)c(=O)[nH]1 | - | IC50 | HCV polymerase | <25 µM
CC(C)CC(=O)N(Cc1ccc(F)cc1F)c1cc(-c2ccccc2)sc1C(=O)O | - | IC50 | NS3 ATPase | 5–20 µM
O=C(O)c1ccc2c(c1)nc(-c1ccc3nc(-c4cc(OCCCN5CCCC5)ccc4-c4ccc(Cl)cc4)ccc3c1)n2C1CCCCC1 | 100 µM | inhibition | NS5B polymerase | 94.86%
CNC(=O)c1c(-c2ccc(F)cc2)oc2cc(S(=O)(=O)N(C)C)c(OC(C)C)cc12 | - | IC50 | Nonstructural protein 5B | ≤0.5 µM
CC(NC(=O)Nc1cscc1-c1nc(C(=O)O)c(O)c(=O)[nH]1)c1c(F)cccc1F | - | IC50 | HCV polymerase | <25 µM
NNc1cc(-c2ccccc2)nc2ccc(-c3nc4cc(C(=O)O)ccc4n3C3CCCCC3)cc12 | 100 µM | inhibition | NS5B polymerase | 100%
CC(NC(=O)Nc1cscc1-c1nc(C(=O)O)c(O)c(=O)[nH]1)c1ccoc1 | - | IC50 | HCV polymerase | <25 µM
Cc1ccc(C(=O)N(C)c2cc(-c3cccc([N+](=O)[O-])c3)sc2C(=O)O)cc1 | - | IC50 | NS3 ATPase | <5 µM
O=C(O)CCC(=O)Nc1cnn2c(C3CCCCC3)c(-c3ccc(OCc4ccccc4)cc3)cnc12 | - | IC50 | RNA-dependent RNA polymerase | 1–10 µM
CNC(=O)c1c(-c2ccc(F)cc2)oc2cc(-c3c(C)noc3C)c(OCc3c(C)noc3C)cc12 | - | IC50 | Nonstructural protein 5B | ≤0.5 µM
CC(C)N(C(=O)c1ccc(Cl)cc1)c1cc(-c2ccccc2)sc1C(=O)O | - | IC50 | NS3 ATPase | <5 µM
O=C(NCc1ccon1)Nc1cscc1-c1nc(C(=O)O)c(O)c(=O)[nH]1 | - | IC50 | HCV polymerase | <25 µM
COc1ccc(-c2cnc(OC)nc2OC)c(-c2ccc3cc(-c4nc5cc(C(=O)O)ccc5n4C4CCCCC4)ccc3n2)c1 | 100 µM | inhibition | NS5B polymerase | 98.3%
O=C(CC(c1ccccc1)c1ccccc1)Nc1cccc(-c2nc(C(=O)O)c(O)c(=O)[nH]2)c1 | - | IC50 | HCV polymerase | <100 µM
CCCOc1cc2c(C(=O)NC)c(-c3ccc(F)cc3)oc2cc1N(C)S(C)(=O)=O | - | IC50 | Nonstructural protein 5B | ≤0.5 µM

Repeating the final 2 entries:

{"smiles": "O=C(CC(c1ccccc1)c1ccccc1)Nc1cccc(-c2nc(C(=O)O)c(O)c(=O)[nH]2)c1", "measure": "IC50", "target": "HCV polymerase", "value": "<100 µM"}
{"smiles": "CCCOc1cc2c(C(=O)NC)c(-c3ccc(F)cc3)oc2cc1N(C)S(C)(=O)=O", "measure": "IC50", "target": "Nonstructural protein 5B", "value": "≤0.5 µM"}